Measured values from several laboratories, pooled; numbers as filed in NIAID ChemDB.

Shared fields: tests in culture; organism: Hepatitis C virus

Blank or dashed fields: not listed here.

SMILES,strain or isolate,cell line,setting,method,changes,endpoint,value
CN(C)c1ccccc1CN1CCCN(Cc2ccccc2N(C)C)C1c1ccncc1,JFH-1,Huh7-1,-,PCR,-,EC50,1.5 µM
C[C@]12C=CC(=O)C=C1CC[C@@H]1[C@@H]2C(=O)C[C@@]2(C)[C@H]1CC[C@]2(O)C(=O)CO,-,Huh7,-,-,-,EC50,300 µM
C[C@@]1(O)[C@H](O)[C@@H](CO)O[C@H]1n1cnc2c(N)ncnc21,genotype 1b,Huh7.5,-,luciferase / reporter gene,Y93N,EC50,0.0289 µM
C/C1=C\CC[C@@]2(C)O[C@H]2[C@H]2OC(=O)[C@@H](CN3CCOCC3)[C@@H]2CC1,-,Huh7,-,replicon,-,EC50,5.41 µM
Cc1nc(N=C(N)N(C)C)[nH]c(=O)c1C,JFH-1,Huh7,-,luciferase,-,EC50,>10 µM
CCCCN(CC(=O)NC)C(=O)CCN1C(=O)[C@H](C)C2CC[C@H](C)C3CCC4(C)OO[C@]32C1O4,-,Huh 5-2,-,replicon,-,EC50,2 µM
CC(=O)Nc1ccc(-c2ccc(Cl)cc2)c(COc2ccc(-c3nc4cc(C(=O)O)ccc4n3C3CCCCC3)cc2)c1,2b,Huh7,-,luciferase,-,EC50,15.7 µM
CS(=O)(=O)Nc1ccc2c(c1)S(=O)(=O)N=C(C1=C(O)[C@@H]3[C@H]4CC[C@H](C4)[C@@H]3N(Cc3ccc(F)cc3)C1=O)N2,GT3a,Huh7.5,-,luciferase / replicon,-,EC50,26.06 µM
C[C@@]1(O)[C@H](O)[C@@H](CO)O[C@H]1n1cnc2c(N)ncnc21,4a,Huh7,-,luciferase,-,EC50,0.2096 µM
C=C[C@@H]1C[C@]1(NC(=O)[C@@H]1C[C@@H](Oc2nccc3ccc(Br)cc23)CN1C(C)=O)C(=O)NS(=O)(=O)C1CC1,1b A156T,-,-,luciferase,-,EC50,>3 µM
CN(C)CCN1Cc2ccccc2-c2c(C3CCCCC3)c3sc(C(=O)O)cc3n2CC1=O,-,Huh7,-,-,-,EC50,0.39 µM
CC(C)OC(=O)[C@H](C)N[P@](=O)(OC[C@H]1O[C@@](C#N)(c2ccc3c(N)ncnn23)[C@](C)(O)[C@@H]1OC(=O)C(C)C)Oc1ccccc1,5a,Huh7 replicon,-,luciferase,-,EC50,0.14 µM
COc1ccc2c(O[C@@H]3C[C@H]4C(=O)N[C@]5(C(=O)O)C[C@H]5/C=C\CCCCC[C@H](NC(=O)OC5CCCC5)C(=O)N4C3)cc(-c3csc(NC(C)C)n3)nc2c1,-,HuH6,-,PCR,-,EC50,>22 µM
C[C@H]1CCC2[C@@H](C)C(=O)N(CCC(=O)N(CC(=O)NCc3ccccc3)c3ccccc3)C3O[C@]4(C)CCC1[C@@]23OO4,-,Huh 5-2,-,replicon,-,EC50,6 µM
N=C(N)n1c(N)nc2ccccc2c1=O,JFH-1,Huh7,-,luciferase,-,EC50,>10 µM
Cc1cc(N2CCCCC2)nc2ccc(Cc3ccc4nc(N5CCCCC5)cc(C)c4c3)cc12,JFH-1,Huh7-1,-,PCR,-,EC50,0.4 µM
C[C@H]1CCC2[C@@H](C)C(=O)N(CCC(=O)N(CO)CC(=O)NCc3ccccc3)C3O[C@]4(C)CCC1[C@@]23OO4,-,Huh 5-2,-,replicon,-,EC50,8 µM
COc1ccc2c(c1)S(=O)(=O)N/C(=c1\c(=O)c3cccn3n(CCC(C)C)c1=O)N2,1b,HCV Huh-7/C24,-,replicon,-,EC50,17 µM
N#Cc1c(-c2ccccc2)nc(SCc2nc3ccccc3[nH]2)[nH]c1=O,-,Huh7,-,replicon / PCR,-,EC90,0.744 µM
CNC(=O)c1c(-c2ccc(F)cc2)oc2cc(N(CCO)S(C)(=O)=O)c(C3CC3)cc12,-,HuH6,-,PCR,-,EC50,>33 µM
C[C@@]1(O)[C@H](O)[C@@H](CO)O[C@H]1c1ccc2c(N)ncnn12,GT5a,Huh7.5,-,PCR,-,EC50,0.82 µM
C[C@H]1CCC2[C@@H](C)C(=O)N(CCC(=O)N(CC=O)CC(=O)NC3CCCCC3)C3OC4(C)CCC1[C@@]23OO4,-,Huh 5-2,-,replicon,-,EC50,7 µM
C=C1CC[C@H]2C(=C)CC[C@H]3C(=C)C(=O)O[C@@H]3[C@@H]12,-,Huh7,-,replicon,-,EC50,3.08 µM
C=CCN(CC(=O)NCS(=O)(=O)c1ccc(C)cc1)C(=O)CCN1C(=O)[C@H](C)C2CC[C@H](C)C3CC[C@]4(C)OO[C@]32C1O4,-,Huh 5-2,-,replicon,-,EC50,4 µM
CNC(=O)c1c(-c2ccc(F)cc2)oc2cc(N(CCO)S(C)(=O)=O)c(C3CC3)cc12,1a,Huh7,-,luciferase,-,EC50,0.0077 µM
O=C(O)c1cc2[nH]c(-c3ccccc3)c(C3CCCCC3)c2s1,-,Huh7,-,-,-,EC50,11.2 µM
CN(Cc1cc(C(C)(C)C)cc(Br)c1O)Cc1cc(C(C)(C)C)cc(Br)c1O,JFH-1,Huh7-1,-,PCR,-,EC50,1.8 µM
CC1(C)O[C@H]2[C@@H]3NC(=O)c4cc5c(cc4[C@H]3C[C@H](O)[C@H]2O1)OCO5,Synthesized HCV RNA,Huh7.5,-,antigen / microscopy,-,EC50,>11 µM
O=C(O)c1cccc([As]=[As]c2cccc(C(=O)O)c2)c1,sg1a (H77),Huh7-1,-,PCR,-,EC50,1.9 µM
CC(C)CCn1c(=O)/c(=C2\Nc3ccccc3S(=O)(=O)N2)c(=O)c2cccn21,1b,HCV Huh-7/C24,-,replicon,-,EC50,5.3 µM
COc1ccc2c(O[C@@H]3C[C@H]4C(=O)N[C@]5(C(=O)O)C[C@H]5/C=C\CCCCC[C@H](NC(=O)OC5CCCC5)C(=O)N4C3)cc(-c3csc(NC(C)C)n3)nc2c1,Con1,1C,-,luciferase,-,EC50,0.00061 µM
C1CC2NCCC3NCCC(N1)N32,JFH-1,Huh7,-,luciferase,-,EC50,>10 µM
CC(C)CCn1c(=O)/c(=C2\Nc3ccc(NS(C)(=O)=O)cc3S(=O)(=O)N2)c(=O)c2cc(F)cn21,1b,HCV Huh-7/C24,-,replicon,-,EC50,0.019 µM
CCC[C@H](NC(=O)[C@@H]1[C@H]2CCC[C@H]2CN1C(=O)[C@@H](NC(=O)[C@@H](NC(=O)c1cnccn1)C1CCCCC1)C(C)(C)C)C(=O)C(=O)NC1CC1,S52,Huh7.5,-,antigen,-,EC50,3.367 µM
CCN(CC)C[C@@H]1C(=O)O[C@H]2[C@H]1CC/C(C)=C/CC[C@@]1(C)O[C@@H]21,-,Huh7,-,replicon,-,EC50,2.51 µM
CCN(CC(=O)NCc1ccccc1)C(=O)CCN1C(=O)[C@H](C)C2CC[C@H](C)C3CC[C@]4(C)OO[C@]32C1O4,-,Huh 5-2,-,replicon,-,EC50,31 µM
C[C@@]1(O)[C@H](O)[C@@H](CO)O[C@H]1n1cnc2c(N)ncnc21,6a HK,Huh7 replicon,-,luciferase,-,EC50,0.031 µM
COc1c(C)c2c(c(O)c1C/C=C(\C)CCC(=O)OCCN1CCOCC1)C(=O)OC2,-,Huh7,-,-,-,EC50,0.8 µM
[N-]=[N+]=N[C@]1(CO)O[C@@H](n2ccc(N)nc2=O)[C@H](O)[C@@H]1O,-,Huh 9-13,-,PCR,-,EC50,>33 µM
CC[C@H]1C[C@]1(NC(=O)[C@@H]1C[C@@H]2CN1C(=O)[C@H](C(C)(C)C)NC(=O)OCC(C)(C)CCCCc1cccc3c1CN(C3)C(=O)O2)C(=O)NS(=O)(=O)C1CC1,J6,Huh7.5,-,antigen,-,EC50,0.04 µM
C[C@H]1CCC2[C@@H](C)C(=O)N(CCC(=O)N(CC(=O)NCc3ccccc3)C(C)(C)C)C3O[C@]4(C)CCC1[C@@]23OO4,-,Huh 5-2,-,replicon,-,EC50,3 µM
CC1CCC(C(=O)N(c2cc(C#CC(C)(C)C)sc2C(=O)O)C2CCC(O)CC2)CC1,GT1b,Huh7-Lunet,-,luciferase,-,EC50,0.011 µM
CC1CCC(C(=O)N(c2cc(C#CC(C)(C)C)sc2C(=O)O)C2CCC(O)CC2)CC1,Con1,1C,-,luciferase,-,EC50,0.017 µM
N#Cc1c(-c2ccccc2-c2ccco2)nc(SCc2nc3ccccc3[nH]2)[nH]c1=O,-,Huh7,-,replicon / PCR,-,EC50,0.129 µM
NC(=O)c1nn(Cc2cccc(NC(=O)c3ccccc3F)c2)c2ccccc12,J399EM,Huh7.5.1,-,fluorescence,-,EC50,0.115 µM
CO[C@@H]1[C@H](O)[C@@H](CO)O[C@H]1n1ccc(N)nc1=O,-,Huh7,24 h,-,-,EC50,21.2 µM
N#Cc1c(-c2ccc(Cl)cc2)nc(SCc2nc3ccccc3[nH]2)[nH]c1=O,-,Huh7,-,replicon / PCR,-,EC90,0.654 µM
CN1CCCC(CNC(=O)Cn2c(-c3ccc(Cl)cc3)c(C3CCCCC3)c3sc(C(=O)O)cc32)C1,-,Huh7,-,-,-,EC50,0.77 µM
Cc1cccc(C(=O)Nc2cccc(Cn3nc(C(N)=O)c4ccccc43)c2)c1,J399EM,Huh7.5.1,-,fluorescence,-,EC50,0.23 µM
C[C@@]1(O)[C@H](O)[C@@H](CO)O[C@H]1n1cnc2c(N)ncnc21,GT2b,Huh7-Lunet,-,luciferase,-,EC50,0.35 µM
O=C1OC2(c3ccc(O)cc3Oc3cc(O)ccc32)c2c1c(-c1ccccc1)c(-c1ccccc1)c(-c1ccccc1)c2-c1ccccc1,sg2a (JFH),Huh7-1,-,PCR,-,EC50,21.1 µM
NC1=NC(c2ccc(Cl)cc2)N(c2ccc(S(N)(=O)=O)cc2)C(N)=N1,JFH-1,Huh7,-,luciferase,-,EC50,>10 µM
C=C1C(=O)O[C@@H]2/C=C(\C)CC/C=C(\C)CC[C@@H]12,-,Huh7,-,replicon,-,EC50,2.69 µM
CC(C)n1c(/C=C/[C@@H](O)C[C@@H](O)CC(=O)O)c(-c2ccc(F)cc2)c2ccccc21,-,Huh 9-13,-,luciferase / replicon,-,EC90,17 µM
CCCN(CC(=O)NCc1ccccc1)C(=O)CCN1C(=O)[C@H](C)C2CC[C@H](C)C3CC[C@]4(C)OO[C@]32C1O4,-,Huh 5-2,-,replicon,-,EC50,>70 µM
C[C@@]1(O)[C@H](O)[C@@H](CO)O[C@H]1n1ccc(N)nc1=O,GT1b,Huh7,-,luciferase / replicon,-,EC50,0.7671 µM
Cc1cc(-c2ccc(N3C(=O)CC4(CCCC4)C3=O)c(C)c2)ccc1N1C(=O)CC2(CCCC2)C1=O,JFH-1,Huh7,-,luciferase,-,EC50,>10 µM
N#Cc1c(-c2ccccc2)nc(NCc2nc3ccccc3[nH]2)[nH]c1=O,-,Huh7,-,replicon / PCR,-,EC50,0.263 µM
COC(=O)CNC(=O)c1nn(Cc2cccc(NC(=O)c3ccc(F)cc3)c2)c2ccccc12,J399EM,Huh7.5.1,-,fluorescence,-,EC50,>10 µM
COCn1c(-c2ccccc2)c(C2CCCCC2)c2sc(C(=O)O)c(CN(C)Cc3ccccc3)c21,-,Huh7,-,-,-,EC50,1.1 µM
COc1ccccc1C(=O)Nc1cccc(Cn2nc(C(N)=O)c3ccccc32)c1,J399EM,Huh7.5.1,-,fluorescence,-,EC50,0.603 µM
C[C@@H]1C(=O)O[C@@H]2C3=CC(=O)C4OC4[C@]3(C)CC[C@@H]12,-,Huh7,-,replicon,-,EC50,>10 µM
CNC(=O)c1c(-c2ccc(F)cc2)oc2cc(N(CCO)S(C)(=O)=O)c(C3CC3)cc12,GT1b,Huh7,-,luciferase / replicon,-,EC50,0.0166 µM
CCCCn1cnc2c(c(CC#N)nn2-c2ccccc2)c1=N,JFH-1,Huh7-1,-,PCR,-,EC50,4.2 µM

A second listing of 8 rows from above:

SMILES | strain or isolate | cell line | setting | method | changes | endpoint | value
C/C1=C\CC[C@@]2(C)O[C@H]2[C@H]2OC(=O)[C@@H](CN3CCOCC3)[C@@H]2CC1 | - | Huh7 | - | replicon | - | EC50 | 5.41 µM
Cc1cc(-c2ccc(N3C(=O)CC4(CCCC4)C3=O)c(C)c2)ccc1N1C(=O)CC2(CCCC2)C1=O | JFH-1 | Huh7 | - | luciferase | - | EC50 | >10 µM
N#Cc1c(-c2ccccc2-c2ccco2)nc(SCc2nc3ccccc3[nH]2)[nH]c1=O | - | Huh7 | - | replicon / PCR | - | EC50 | 0.129 µM
C=C[C@@H]1C[C@]1(NC(=O)[C@@H]1C[C@@H](Oc2nccc3ccc(Br)cc23)CN1C(C)=O)C(=O)NS(=O)(=O)C1CC1 | 1b A156T | - | - | luciferase | - | EC50 | >3 µM
C=CCN(CC(=O)NCS(=O)(=O)c1ccc(C)cc1)C(=O)CCN1C(=O)[C@H](C)C2CC[C@H](C)C3CC[C@]4(C)OO[C@]32C1O4 | - | Huh 5-2 | - | replicon | - | EC50 | 4 µM
C[C@H]1CCC2[C@@H](C)C(=O)N(CCC(=O)N(CC(=O)NCc3ccccc3)C(C)(C)C)C3O[C@]4(C)CCC1[C@@]23OO4 | - | Huh 5-2 | - | replicon | - | EC50 | 3 µM
CC(C)n1c(/C=C/[C@@H](O)C[C@@H](O)CC(=O)O)c(-c2ccc(F)cc2)c2ccccc21 | - | Huh 9-13 | - | luciferase / replicon | - | EC90 | 17 µM
CNC(=O)c1c(-c2ccc(F)cc2)oc2cc(N(CCO)S(C)(=O)=O)c(C3CC3)cc12 | - | HuH6 | - | PCR | - | EC50 | >33 µM

Lines come from different laboratories, so protocols vary. ECn is the concentration giving n% inhibition of infection, replication or growth.